Results of unrelated studies side by side (data: NIAID ChemDB).

All rows: whole-cell or culture tests; species: HIV-1; cells: C8166; endpoint: EC50

ECn is the concentration giving n% inhibition of infection, replication or growth.

{"smiles": "Cc1cn([C@H]2C[C@H](N=[N+]=[N-])[C@@H](CO)O2)c(=O)[nH]c1=O", "strain": "IIIB", "method": "syncytia", "result": "0.00534 µg/mL"}
{"smiles": "CCN1c2ncc(CCOc3cccc4c3CNC4=O)cc2-c2ncc(C)n2-c2cccnc21", "method": "p24", "result": "<0.01 µM"}
{"smiles": "CC(=O)O[C@H]1C[C@]2(C)[C@H]3[C@H](OC(=O)c4ccccc4)CC[C@]4(CO4)[C@]3(C)[C@@H](OC(C)=O)C[C@]2(C)O[C@]12COC(=O)C2", "strain": "IIIB", "method": "MTT / ELISA", "result": "48.24 µg/mL"}
{"smiles": "CCN1c2ncc(CCOc3ccc(-c4nccn4C)cc3C)cc2C(=O)N(C)c2cccnc21", "mutations": "RT-K103N Y181C", "method": "p24", "result": "0.01–0.05 µM"}
{"smiles": "Cc1ccc(S(=O)(=O)c2c(C(N)=O)[nH]c3ccc(Cl)cc23)cc1", "strain": "IIIB", "method": "p24", "result": "<0.01 µM"}
{"smiles": "CCC(=O)c1cn(S(=O)(=O)c2ccc(C)cc2)c2ccc(C#N)cc12", "strain": "IIIB", "method": "syncytia / visual reading", "result": ">200 µg/mL"}
{"smiles": "CCN1c2ncc(CCOc3ccc4cc(C(=O)NN)ccc4c3)cc2C(=O)N(C)c2cccnc21", "strain": "WT", "method": "p24", "result": "<0.1 µM"}
{"smiles": "CCOCn1c2c(c(=O)[nH]c1=O)-c1ccccc1CC2", "strain": "IIIB", "result": ">5 µM"}
{"smiles": "O=C1c2ccccc2C(=O)c2c(OS(=O)(=O)c3ccccc3)ccc(Cl)c21", "strain": "IIIB", "method": "syncytia", "result": "35.13 µg/mL"}
{"smiles": "Nc1ncnc2c1ncn2[C@H]1CC[C@@H](CO)O1", "strain": "RF", "result": "2 µM"}
{"smiles": "CCN1c2ncc(CCOc3ccc(CC(=O)NN)c4ccccc34)cc2C(=O)N(C)c2cccnc21", "mutations": "RT-K103N Y181C", "method": "p24", "result": "<0.1 µM"}
{"smiles": "N#Cc1c(F)c(F)c2nc(N)nc(N)c2c1F", "strain": "IIIB", "method": "syncytia", "result": "1.6 µg/mL"}
{"smiles": "O=C(CSc1nnnn1-c1cccc2ccccc12)Nc1cccc(Cl)c1Cl", "strain": "RT-K103N Y181C", "mutations": "1(RT-K103N Y181C)", "method": "p24", "result": "≥0.1 µM"}
{"smiles": "CCN1c2ncc(CCOc3ccc(-c4cc(C(=O)O)c[n+]([O-])c4)cc3C)cc2C(=O)N(C)c2cccnc21", "mutations": "RT-K103N Y181C", "method": "p24", "result": ">0.05 µM"}
{"smiles": "CCC(=O)c1cn(S(=O)(=O)c2ccc(CC)cc2)c2ccccc12", "strain": "IIIB", "method": "syncytia / visual reading", "result": "3.4 µg/mL"}
{"smiles": "CCN1c2ncc(CCOc3ccc(-c4cc(CC(=O)O)ccc4OC)cc3C)cc2C(=O)N(C)c2cccnc21", "mutations": "RT-K103N Y181C", "method": "p24", "result": "0.01–0.05 µM"}
{"smiles": "O=C1c2ccccc2C(=O)c2c(Cl)ccc(O)c21", "strain": "IIIB", "method": "syncytia", "result": "39.73 µg/mL"}
{"smiles": "Cc1cc(C)c(CS(=O)c2cccc[n+]2[O-])c(C)c1", "strain": "IIIB", "method": "cytopathic effect / MTT", "result": ">40 µg/mL"}
{"smiles": "Cc1cn([C@H]2C[C@H](N=[N+]=[N-])[C@@H](CO)O2)c(=O)[nH]c1=O", "strain": "IIIB", "method": "p24 / ELISA / antigen", "result": "0.00217 µM"}
{"smiles": "CC1(C)C=C2C3CCC4[C@@]5(C)CCC(=O)C(C)(C)C5[C@H](O)C[C@@]4(C)[C@]3(C)CC[C@@]2(C(=O)O)CC1", "strain": "IIIB", "method": "syncytia", "result": "13.11 µM"}
{"smiles": "OC[C@@H]1CC[C@H](n2cnc3cccnc32)O1", "strain": "RF", "method": "cytopathic effect / MTT / p24", "result": ">1000 µM"}
{"smiles": "CCN1c2ncc(CCOc3ccc(-c4ccn(CC(=O)O)n4)cc3)cc2C(=O)N(C)c2cccnc21", "strain": "IIIB", "method": "p24", "result": ">0.05 µM"}
{"smiles": "CCN1c2ncc(CCOc3ccc(/C=C(\\C)C(=O)O)c4ccccc34)cc2C(=O)N(C)c2ccc(Cl)nc21", "strain": "WT", "method": "p24", "result": "<0.1 µM"}
{"smiles": "O=C(CN1CCCC1)Nc1ccc(Cc2ccc(NC(=O)CN3CCCC3)cc2)cc1", "strain": "IIIB", "method": "MTT", "result": "17.05 µg/mL"}
{"smiles": "Cc1ccc(S(=O)(=O)c2c(C(N)=O)[nH]c3ccc(Cl)cc23)c(C)c1", "strain": "Efavirenz-resistant (RT K103R V179D P225H)", "mutations": "RT-K103R V179D P225H", "method": "cytopathic effect / MTT", "result": "<5.3 µM"}
{"smiles": "CCN1c2ncc(CCOc3ccc(CC(=O)NN)c4ccccc34)cc2C(=O)N(C)c2ccc(Cl)nc21", "strain": "WT", "method": "p24", "result": "<0.1 µM"}
{"smiles": "CC(=O)O[C@H]1C[C@]2(C)O[C@]3(COC(=O)C3)[C@@H](OC(=O)c3ccccc3)C[C@]2(C)[C@H]2[C@H](OC(C)=O)CC[C@]3(CO3)[C@]12C", "strain": "IIIB", "method": "MTT / ELISA", "result": "56.89 µg/mL"}
{"smiles": "CCN1c2ncc(CCOc3ccc(C(=O)NNC)cc3C)cc2C(=O)N(C)c2cccnc21", "strain": "IIIB", "method": "p24", "result": "<0.01 µM"}
{"smiles": "CCC(=O)c1cn(S(=O)(=O)c2ccc(Cl)cc2)c2ccccc12", "strain": "IIIB", "method": "syncytia / visual reading", "result": "73 µg/mL"}
{"smiles": "Cc1cn([C@H]2C[C@H](N=[N+]=[N-])[C@@H](CO)O2)c(=O)[nH]c1=O", "method": "cytopathic effect", "result": "0.00203 µg/mL"}
{"smiles": "COc1cc(O)c(CC=C(C)C)c(O)c1C(=O)/C=C/c1ccc(O)cc1", "strain": "IIIB", "method": "p24", "result": "3.21 µM"}
{"smiles": "CCN1c2ncc(CCOc3ccc(C(=O)O)c4c3CCCC4)cc2C(=O)N(C)c2ccc(Cl)nc21", "mutations": "RT-K103N Y181C", "method": "p24", "result": "<0.1 µM"}
{"smiles": "CCn1cc(C(=O)O)c(=O)c2cc(F)c(N3CCN(c4ccccc4OC)CC3)c(OC(F)F)c21", "strain": "B12", "method": "cytopathic effect / MTT", "result": "0.2 µM"}
{"smiles": "C=C(C)[C@@H]1CC[C@]2(CO)CC[C@]3(C)[C@H](CC[C@@H]4[C@@]5(C)CC[C@H](O)C(C)(C)[C@@H]5CC[C@]43C)[C@@H]12", "strain": "IIIB", "method": "syncytia", "result": "232 µM"}
{"smiles": "CCN1c2ncc(CCOc3ccc(CCC(=O)O)c4ccccc34)cc2C(=O)Nc2c(C)cc(Cl)nc21", "mutations": "RT-K103N Y181C", "method": "p24", "result": "0.1–1 µM"}
{"smiles": "Cc1ccc(S(=O)(=O)Oc2ccc(Cl)c3c2C(=O)c2ccccc2C3=O)cc1", "strain": "IIIB", "method": "syncytia", "result": "37.53 µg/mL"}
{"smiles": "Cc1cn([C@H]2C[C@H](N=[N+]=[N-])[C@@H](CO)O2)c(=O)[nH]c1=O", "strain": "IIIB", "method": "syncytia", "result": "0.0024 µg/mL"}
{"smiles": "CCN1c2ncc(CCOc3ccc(C(=O)O)cc3C)cc2-c2nccn2-c2cccnc21", "method": "p24", "result": "<0.01 µM"}
{"smiles": "N#Cc1c(Cl)c(Cl)c2nc(N)nc(N)c2c1Cl", "strain": "IIIB", "method": "syncytia", "result": "1.8 µg/mL"}
{"smiles": "CCC(=O)c1cn(S(=O)(=O)c2ccc(C)cc2)c2cc(C)ccc12", "strain": "IIIB", "method": "syncytia / visual reading", "result": "11.8 µg/mL"}
{"smiles": "NC(=O)c1[nH]c2ccc(Cl)cc2c1S(=O)(=O)c1ccccc1", "strain": "IIIB", "method": "p24", "result": "<0.007 µM"}
{"smiles": "CCN1c2ncc(CCOc3ccc(S(=O)(=O)NCC(=O)O)c4ccccc34)cc2C(=O)N(C)c2cccnc21", "mutations": "RT-K103N Y181C", "method": "p24", "result": "0.1–1 µM"}
{"smiles": "CCC(=O)c1cn(S(=O)(=O)c2ccc(OC)cc2)c2ccc(C#N)cc12", "strain": "IIIB", "method": "syncytia / visual reading", "result": "17.4 µg/mL"}
{"smiles": "CC(C)=CCC/C(C)=C/CC/C(C)=C/CC/C(C)=C/Cc1cc(O)cc2c1OC(=O)C2=C(C)C", "strain": "IIIB", "method": "syncytia", "result": "1.62 µM"}

The first 2 rows once more:

smiles	strain	mutations	method	result
Cc1cn([C@H]2C[C@H](N=[N+]=[N-])[C@@H](CO)O2)c(=O)[nH]c1=O	IIIB	-	syncytia	0.00534 µg/mL
CCN1c2ncc(CCOc3cccc4c3CNC4=O)cc2-c2ncc(C)n2-c2cccnc21	-	-	p24	<0.01 µM

Lines come from different laboratories, so protocols vary. a–b is a range or a potency band. An empty or dashed field is not shown.